Patent US20170281749A1

Molecular target: CH505TF gp120 Δ7 Monomer
Test: SPR

Row | Substance | Kd
1 | 2G12 (-CHO) | 0.656 µM
2 | 19b (V3) | 0.0097 µM
3 | 697 D (V2) | 0.564 µM
4 | A32 (C1) | 0.0001 µM
5 | CH01 (V1-V2) | > 100 µM
6 | CH58 (V2) | 0.278 µM
7 | CH103_UCA (CD4 bs) | 0.179 µM
8 | CH106 (CD4 bs) | 0.0065 µM
9 | F105 (CD4 bs) | 0.448 µM
10 | PG9 (V1-V2) | 0.926 µM
11 | PGT128 (-CHO) | 0.154 µM
12 | VRC01 (CD4 bs) | 0.0084 µM
